Pooled drug test results. Numbers come from NIAID ChemDB, via PubChem.

Common to all: tests in culture; species: HIV-1; method: cytopathic effect / XTT; endpoint: EC50

Blank or dashed fields: not listed here. ECn: concentration that inhibits the pathogen or its effect by n%. Conditions beyond the fields shown may differ between rows.

compound	strain or isolate	changes	cells	value
Fc1cccc(F)c1C1SCc2nc3ccccc3n21	KELL	-	CEM + CEM-SS	2.33 µM
Cc1cn([C@H]2C=C[C@@H](CO)O2)c(=O)[nH]c1=O	LAI	-	MT-2	5.3 µM
Fc1cccc(F)c1C1SCc2nc3ccccc3n21	IIIB	RT-Y188C	CEM	4.16 µM
O=S1(c2ccccc2)=NC(=S)Nc2ccc(Cl)cc21	IIIB	-	MT-2	0.04 µM
Cc1cc(S(=O)(=O)Nc2n[nH]c(Nc3ccccc3)n2)c(SCC(=O)O)cc1Cl	RF	-	CEM	>200 µM
Cc1cn([C@H]2C[C@H](N=[N+]=[N-])[C@@H](CO)O2)c(=O)[nH]c1=O	IIIB	-	CEM + CEM-SS	0.004 µM
CC(C)=CCN1Cc2cccc3[nH]c(=S)n(c23)C[C@@H]1C	IIIB	-	PBMC	0.19 µM
Nc1nc2c(ncn2[C@H]2CO[C@@H](CO)O2)c(=O)[nH]1	Site-directed mutant	RT-L74V	MT-2	7.7 µM
Cc1cc(S(=O)(=O)Nc2n[nH]c(Nc3ccc4ccccc4c3)n2)c(S)cc1Cl	RF	-	CEM	>200 µM
CCCc1cc(=O)oc2c3c(c4c(c12)OC(C)(C)C=C4)O[C@H](C)[C@@H](C)[C@@H]3O	IIIB	-	PBMC	0.22 µM
Cc1ccnc2c1NC(=O)c1cccnc1N2C1CC1	NL4-3 (RT L74V)	RT-L74V	CEM + CEM-SS	0.02 µM
CCc1c(Sc2ccccn2)n(COCc2ccccc2)c(=O)[nH]c1=O	IIIB	RT-Y181C	CEM + CEM-SS	1.6 µM
Nc1ccc(S(N)(=O)=O)cc1SSc1cc(S(N)(=O)=O)ccc1N	RF	-	CEM	26.7 µM
C/C=C/CSc1cc(NC(=S)c2ccsc2C)ccc1Cl	4xAZT	-	CEM + CEM-SS	0.02 µM
Cc1cc(S(=O)(=O)Nc2nc(N)nc(N(C)C)n2)c(SC(C(=O)O)c2ccccc2)cc1Cl	RF	-	CEM	>200 µM
CC(C)=CCN1Cc2cc(Cl)cc3[nH]c(=S)n(c23)C[C@@H]1C	IIIB	RT-K103N	CEM	≥16 µM
CCc1c(Sc2ccccn2)n(COCc2ccccc2)c(=O)[nH]c1=O	IIIB	-	U-937	0.022 µM
Cc1cn([C@H]2C[C@H](N=[N+]=[N-])[C@@H](CO)O2)c(=O)[nH]c1=O	BaL	-	Macrophage	0.4 µM
O=C1N(Cc2ccc(CO)cc2)[C@H](COc2ccccc2)[C@H](O)[C@@H](O)[C@@H](COc2ccccc2)N1Cc1ccc(CO)cc1	IIIB	PR-I84V L90M	MT-4	0.2 µM
O=S1(c2ccccc2)=NC(SSC2=Nc3ccc(Cl)cc3S(=O)(c3ccccc3)=N2)=Nc2ccc(Cl)cc21	IIIB	-	CEM + CEM-SS	>6.9 µM
Cc1cc(S(=O)(=O)Nc2nc(N)nc(N(C)C)n2)c(SCC(=O)O)cc1Cl	RF	-	CEM	>200 µM
CCc1c(C(=O)c2cc(C)cc(C)c2)n(CC2CC=CC2)c(=O)[nH]c1=O	NL4-3	RT-V106I	CEM + CEM-SS	0.0006 µM
O=c1[nH]cnc2c1ncn2[C@H]1CC[C@@H](CO)O1	NL4-3 Recombinant	-	MT-2	8 µM
CNC(=O)c1cc(S(=O)(=O)Nc2nncn2CC(C)C)c(S)cc1Cl	RF	-	CEM	>200 µM
Fc1cccc(F)c1[C@@H]1SCc2nc3ccccc3n21	IIIB	RT-K103N	CEM	12.1 µM
Cc1cc(S(=O)(=O)Nc2n[nH]c(-c3ccc(Cl)cn3)n2)c(S)cc1Cl	RF	-	CEM	48.2 µM
C[C@H](Cn1cnc2c(N)ncnc21)OCP(=O)(O)O	Site-directed mutant	RT-K65R Y115F M184V	MT-2	16.2 µM
Cc1occc1C(=S)Nc1ccc(Cl)c(/C=N/OC(C)(C)C)c1	UC10/costatolide-resistant (RT K103N)	RT-K103N	CEM + CEM-SS	7.3 µM
Cc1cn([C@H]2C=C[C@@H](CO)O2)c(=O)[nH]c1=O	Site-directed mutant	RT-K65R	MT-2	14.74 µM
O=S(=O)(c1ccccc1)c1ccccc1	IIIB	-	CEM + CEM-SS	0.65 µM
Cc1cn([C@H]2C[C@H](N=[N+]=[N-])[C@@H](CO)O2)c(=O)[nH]c1=O	NL4-3	-	CEM + CEM-SS	0.003 µM
Cc1cn([C@H]2C[C@H](N=[N+]=[N-])[C@@H](CO)O2)c(=O)[nH]c1=O	KELL	-	CEM + CEM-SS	0.0012 µM
Cc1ccnc2c1NC(=O)c1cccnc1N2C1CC1	IIIB	-	U-937	0.34 µM
O=S1(c2ccccc2)=NC(=S)Nc2ccccc21	G	-	CEM + CEM-SS	1.13 µM
COc1cc(-c2ccc(N=Nc3c(S(=O)(=O)[O-])cc4cc(S(=O)(=O)[O-])cc(N)c4c3O)c(OC)c2)ccc1N=Nc1c(S(=O)(=O)[O-])cc2cc(S(=O)(=O)[O-])cc(N)c2c1O.[Na+].[Na+].[Na+].[Na+]	RF	-	CEM + CEM-SS	>12 µM
Cc1cn([C@H]2C[C@H](N=[N+]=[N-])[C@@H](CO)O2)c(=O)[nH]c1=O	HXB2	-	MT-2	0.2 µM
Cc1cn([C@H]2C[C@H](N=[N+]=[N-])[C@@H](CO)O2)c(=O)[nH]c1=O	IIIB	RT-P236L	CEM + CEM-SS	0.01 µM
CCCCC(Sc1cc(Cl)c(C)cc1S(=O)(=O)Nc1n[nH]c(N)n1)C(=O)OC	RF	-	CEM	>112 µM
Cc1ccnc2c1NC(=O)c1cccnc1N2C1CC1	NL4-3	RT-V179D	CEM + CEM-SS	0.03 µM
O=S(=O)(c1ccccc1)c1ccccc1	IIIB HEPT-resistant (RT P236L)	RT-P236L	CEM + CEM-SS	9.5 µM

For reference, 2 entries again:

compound	strain or isolate	changes	cells	value
Cc1cc(S(=O)(=O)Nc2nc(N)nc(N(C)C)n2)c(SCC(=O)O)cc1Cl	RF	-	CEM	>200 µM
C[C@H](Cn1cnc2c(N)ncnc21)OCP(=O)(O)O	Site-directed mutant	RT-K65R Y115F M184V	MT-2	16.2 µM